A mixed list of measured activities; the numbers were collected in NIAID ChemDB.

Shared fields: cytotoxicity tests; cell line: TZM-bl; read by: MTT; endpoint: CC50

CCn: concentration that lowers growth or viability of the cells by n%.

compound | result
O=C(CCC(=O)n1cnc2c([N+](=O)[O-])cccc21)n1cnc2c([N+](=O)[O-])cccc21 | 185 µM
COc1cccc(-n2nc(-c3ccc(C)[nH]c3=O)cc2-c2ccccc2)c1 | 322 µM
COc1cccc2ccc(-c3nnc(-c4ccccc4)o3)nc12 | 237 µM
Clc1ccc2nc(/C=C/c3ccc4c(c3)OCO4)cc(Cl)c2c1 | 39.11 µM
COc1ccc(N/N=C/c2ccc3cccc(O)c3n2)cc1 | 138 µM
O=C(Cn1ccc(=O)[nH]c1=O)Nc1ccc([N+](=O)[O-])cn1 | 6.32 µM
Cc1cn([C@H]2C[C@H](N=[N+]=[N-])[C@@H](CO)O2)c(=O)[nH]c1=O | 872 µM
Cc1cn(CC(=O)Nc2ccc(Br)cn2)c(=O)[nH]c1=O | 56.5 µM
Cc1cccc(N2C(=O)CSC2c2c(Cl)cncc2Cl)n1 | 45 µg/mL
COc1cc(Br)ccc1/C=C/c1cc(Cl)c2ccccc2n1 | 40.57 µM
Cc1cc(N2C(=O)CSC2c2c(F)cccc2F)no1 | 62.7 µg/mL
COc1cccc2ccc(-c3nnc(-c4ccc5c(c4)OCO5)o3)nc12 | 147 µM
O=[N+]([O-])c1ccc(Nc2cc(-c3cccnc3)nc3ccccc23)c(F)c1 | 20 µM
COc1cc(/C=C/c2cc(Cl)c3ccccc3n2)cc(OC)c1OC | 41.6 µM
Cc1ccc(-c2cc(-c3ccccc3)n(-c3ccccc3C)n2)c(=O)[nH]1 | 120 µM
Cc1ccccc1N/N=C/c1ccc2cccc(O)c2n1 | 43.63 µM
Cc1cc(N2C(=O)CSC2c2c(F)cccc2Cl)nc(C)c1Br | 40.2 µg/mL
Cc1cc(C)cc(-n2nc(-c3ccc(C)[nH]c3=O)cc2-c2ccccc2)c1 | 371 µM
Cc1cc(N2C(=O)CSC2c2c(Cl)cccc2Cl)nc(C)c1Br | 2.5 µg/mL
Cc1cn([C@H]2C[C@H](N=[N+]=[N-])[C@@H](CO)O2)c(=O)[nH]c1=O | 872 µM
COc1cccc2ccc(/C=C/C(=O)Nc3ccccc3)nc12 | 98.24 µM
CC(C)(C)c1cc(N2C(=O)CSC2c2c(F)cccc2Cl)no1 | 40.7 µg/mL
Clc1ccc2nc(/C=C/c3cccc4ccccc34)cc(Cl)c2c1 | 32.84 µM
COc1cccc2ccc(-c3nnc(-c4ccco4)o3)nc12 | 36.18 µM
Cc1ccc(-c2cc(-c3ccccc3)n(-c3ccc(C)c(C)c3)n2)c(=O)[nH]1 | 547 µM
COc1cccc2ccc(-c3nnc(-c4ccc(F)cc4)o3)nc12 | 236 µM
Clc1ccc2nc(/C=C/c3ccc(N4CCOCC4)cc3)cc(Cl)c2c1 | 35.3 µM
C/C(=N/O)c1ccc(Nc2nc(-c3ccncc3)nc3ccccc23)cc1 | 7 µM
COc1cccc(N/N=C/c2ccc3cccc(O)c3n2)c1 | 39.89 µM
Cc1ccc(-c2cc(-c3ccccc3)n(-c3ccc(Cl)cc3)n2)c(=O)[nH]1 | 532 µM
Clc1cc(/C=C/c2ccc3c(c2)OCO3)nc2ccccc12 | 27.12 µM
COc1ccc(N(C)C(=O)[C@H](Cc2ccccc2)NC(=O)c2cccc(-c3cn(C4CC(n5cc(C)c(=O)[nH]c5=O)OC4CO)nn3)c2)cc1 | >29.42 µM
Cc1ccc(-c2cc(-c3ccccc3)n(-c3ccc(Br)cc3)n2)c(=O)[nH]1 | 728 µM
Clc1ccc2nc(/C=C/c3ccc(N4CCCCC4)cc3)cc(Cl)c2c1 | 32.61 µM
COc1cccc2ccc(-c3nnc(-c4ccccc4F)o3)nc12 | 27.45 µM
COc1ccc(N(C)C(=O)[C@H](Cc2ccccc2)NC(=O)c2cccc(-c3cn(-c4cnc5ccccc5c4)nn3)c2)cc1 | >34.33 µM
Cc1cc(C)c(Nc2nc(Cl)nc(Nc3ccc(C#N)nc3)n2)c(C)c1 | 50 µg/mL
O=C(CCC(=O)Nc1ccc(Br)cn1)Nc1ccc(Br)cn1 | 487.6 µM
COc1cccc2ccc(/C=C/C(=O)Nc3ccc(C)cc3)nc12 | 20.6 µM
Clc1cc(/C=C/c2ccc(OCc3ccccc3)cc2)nc2ccccc12 | 112 µM

Conditions beyond the fields shown may differ between rows.